Anti-infective test results gathered from many reports (values: NIAID ChemDB through PubChem).

All rows: whole-cell or culture tests; organism: Cowpox virus; endpoint: EC50

Neighbouring rows are from separate reports.

smiles	strain	cells	result
CC(C)(C)NC(=O)[C@@H]1CN(Cc2cccnc2)CCN1C[C@@H](O)C[C@@H](Cc1ccccc1)C(=O)N[C@H]1c2ccccc2C[C@H]1O	-	HFF	>300 µM
O=c1[nH]cnc2c1ncn2[C@H]1CC[C@@H](CO)O1	-	HFF	>423 µM
Nc1nccc2c1ncn2[C@@H]1C[C@H](CO)[C@@H](O)[C@H]1O	Brighton strain wild type	VERO 76	>1000 µM
Cc1cn([C@H]2C=C[C@@H](CO)O2)c(=O)[nH]c1=O	-	VERO	>446 µM
Nc1nc(NC2CC2)c2ncn([C@H]3C=C[C@@H](CO)C3)c2n1	-	HFF	>300 µM
COc1c(C)c2c(c(O)c1C/C=C(\C)CCC(=O)O)C(=O)OC2	-	VERO 76	3 µM
Nc1nc2c(ncn2COCCO)c(=O)[nH]1	-	VERO	>444 µM
Nc1ccn(C[C@@H](CO)OCP(=O)(O)O)c(=O)n1	-	BSC	31 µM
CC1OP(=O)(OC[C@H]2O[C@@H](n3cc(/C=C/Br)c(=O)[nH]c3=O)C[C@@H]2O)Oc2cccc(Cl)c21	-	VERO 76	>99 µg/mL
CCCCCCCCCCCCCCCCCCOCCOP1(=O)CO[C@@H](Cn2ccc(N)nc2=O)CO1	Brighton	HFF	0.5 µM
Nc1ccn(C[C@@H](CO)OCP(=O)(O)O)c(=O)n1	Brighton strain wild type	VERO 76	45 µM
Nc1ccn(C[C@@H](CO)OCP(=O)(O)O)c(=O)n1	-	VERO 76	92 µM
Cc1c(O)cccc1C(=O)N[C@@H](CSc1ccccc1)[C@H](O)CN1C[C@H]2CCCC[C@H]2C[C@H]1C(=O)NC(C)(C)C	-	HFF	>300 µM
Cc1cccc2c1OP(=O)(OCCOCn1cnc3c(=O)[nH]c(N)nc31)OC2	-	VERO 76	>99 µg/mL
CC(C)(C)NC(=O)[C@@H]1C[C@@H]2CCCC[C@@H]2CN1C[C@@H](O)[C@H](Cc1ccccc1)NC(=O)[C@H](CC(N)=O)NC(=O)c1ccc2ccccc2n1	-	HFF	>300 µM
CCCCOC(=O)[C@H](C)NP1(=O)CO[C@@H](Cn2ccc(N)nc2=O)CO1	Brighton	HFF	8.4 µM
NC(=O)c1ncn([C@@H]2O[C@H](CO)[C@@H](O)[C@H]2O)n1	Brighton strain wild type	VERO 76	625 µM
O=c1[nH]cnc2c1ncn2[C@H]1CC[C@@H](CO)O1	-	HFF	>300 µM

For reference, 2 entries again:

{"smiles": "Cc1cn([C@H]2C=C[C@@H](CO)O2)c(=O)[nH]c1=O", "cells": "VERO", "result": ">446 µM"}
{"smiles": "Nc1ccn(C[C@@H](CO)OCP(=O)(O)O)c(=O)n1", "strain": "Brighton strain wild type", "cells": "VERO 76", "result": "45 µM"}

Blank or dashed fields: not listed here. ECn: concentration that inhibits the pathogen or its effect by n%.